pKd: −log10 of the molar value.

The record followed here is patent publication US20210260167A1.

This assay has as its target Human PAI-1 (Plasminogen activator inhibitor-1) (human) (UniProt P05121). Description: SPR (Biacore X100), human PAI-1 amine-coupled on chip, lubricin injected at 0.576-420 µg/mL, 25 °C. For orientation: Surface plasmon resonance follows binding to a sensor surface in real time, without labels.

A word on the pKd: it is the Kd on a negative log10 scale, so that one unit is a factor of ten. Read a low pKd as a high Kd. Substance “recombinant human lubricin (full length human PRG4) (from UniProt Q92954 25-1404) (other; other documents disagree on this pair)” gave a negative-log Kd (pKd) of 5.57.
